Experiments:
[1] = system: macrophage-trophic HIV-1Ba-L strain; format: cell-based; conditions: macrophage-trophic 1Ba-L strain
Description: FIG. 1: Inhibition by Peptide Seq ID NO: 28 of HIV replication in a concentration-dependent manner. PM1 cells were de novo infected with macrophage-trophic HIV-1Ba-L strain in the presence of Peptide Seq ID NO: 28. HIV replication was monitored by p24 assay as described below. Peptide Seq ID NO: 28 inhibits HIV replication in a concentration-dependent manner with IC50 (half-maximal inhibitory constant) of 10 μM.
HIV replication was measured either by p24 HIV Antigen Capture Assay Kit (ELISA; HIVAG-1 Monoclonal kit B1A011; Abbott) following the manufacturer's recommendation, or by using the Quantiplex HIV-1 RNA 3.0 Assay (bDNA) system (Chiron Diagnostics). The latter assay is a signal amplification nucleic acid probe assay (employing a sandwich nucleic acid hybridization procedure) for direct quantitation of HIV RNA in human plasma. There, in brief, HIV-1 is first concentrated from plasma by centrifugation. […] Light emission is directly proportional to the amount of HIV-1 RNA present in each sample, and results are recorded as relative light units by an appropriate analyzer. […]
(§1) Culture medium was changed and cells were split at days 3 and 7 of the experiments. Viability of the cells (Trypan-blue staining), cell counts and p24 antigen levels were determined at days 3, 6, 9, 12 and 15 of the experiments. […]

PM1 cells = assay: Cell viability (Trypan-blue staining) of PM1 cells infected with HIV-1 FE9; format: cell-based, human; conditions: day 15, HIV-1 FE9 infected PM1 cells
Description: FIG. 8: Inhibition by Peptide Seq ID NO: 28 of replication of the omni-resistant HIV stain FE9. PM1 cells were incubated with HIV-1 FE9 for 2 hours and subsequently HIV replication was monitored by p24 assay as described below at day d6, d9, d12 and d15. In control (DMSO) treated cells HIV-1 FE9 replication could be detected at day 12 postinfection. Cell viability as monitored by Trypan-blue staining and photometric analysis was reduced in control treated cells at day 12 reflecting the cell death by HIV.
PM1 cells were infected with an “omni-drug-resistant HIV-1” (recombinant HIV-1 NL4-3 in which the Protease gene and the 5′ part of the Reverse Transcriptase gene was replaced by the corresponding sequences from a omni-drug-resistant clinical isolate, resistant to all currently available anti-HIV drugs. Infected cells were incubated with peptide SEQ ID NO. 28 at a concentration of 8.1 μM, 12.2 μM, 16.3 μM or DMSO (control). The culture medium was changed every third day. Cell viability (Trypan-blue staining), cell counts and p24 levels were determined at day 6 and 12. At day 12 of infection, the virus replicated vigorously in untreated cultures. Numbers describe percent inhibition of HIV-1 replication as compared to control experiments. In addition, various different “types” of multiple anti-retroviral drug resistant HIV-1 strains were also tested.

[2] = Viability of the infected cells (Trypan-blue staining) in the HIV-1 inhibition experiment; format: cell-based; conditions: human; days 3, 6, 9, 12 and 15, Trypan-blue staining; read-out: Viability of the cells (living cells)
Text: Jurkat cells (species: human T-cell leukemia; special characteristics: cells are permissive for growth of T-cell trophic HIV strains; source: ATCC Cat. No. TIB 152) or PM1 cells (species: clonal derivative of human HUT 78 cells; special characteristics: cells are permissive for growth of macrophage-trophic and T-cell trophic HIV strains; source: Dr. Marvin Reitz, courtesy of the NIH AIDS Research and Reference Reagent Program Cat. No. 3038) were stimulated with Phytohemagglutinin (PHA-P, Product No. L9132 from Sigma) in a concentration of 2 μg/ml (1.5×10^6 cells/ml) and Hexadimethrine Bromide (Polybrene, Product No. H9268 from Sigma) in a concentration of 2 μg/ml (1.5×10^6 cells/ml) in RPMI 1640 medium containing 10% fetal calf serum (FCS, Pansystems GmbH) and antibiotics for 3 days.
For HIV-1 infection, 5×10^7 cells were resuspended in 500 μl culture medium without test drugs and incubated in a 50 ml blue-cap-tube at 37° C. for 5 hrs with HIV-1 high titer viral stocks. […]
as §1

For `CCCC[C@H](NC(=O)[C@H](CCCC)NC(=O)[C@H](CCCC)NC(=O)[C@H](CCCNC(=N)N)NC(=O)[C@H](CCCC)NC(=O)[C@H](CCCC)NC(=O)[C@H](CCCC)NC(=O)[C@@H](N)CCCNC(=N)N)C(=O)NCC(=O)N[C@@H](Cc1ccc(O)cc1)C(=O)O` [Peptide Seq ID NO: 28, Arg nL nL nL Arg nL nL nL Gly Tyr], the IC50 [1] was 10 µM, the Cell viability (PM1 cells) was “al cells were viable” and the viability [2] was 85 to 90%.
